According to publication PMC2834670:
The exact form of at least one protein or probe is not confirmed. Tags and fusion partners may be left off the protein sequences shown.

Target: T1, MleR (UniProt Q8DWC9)
T1 sequence (looked up, limits assumed): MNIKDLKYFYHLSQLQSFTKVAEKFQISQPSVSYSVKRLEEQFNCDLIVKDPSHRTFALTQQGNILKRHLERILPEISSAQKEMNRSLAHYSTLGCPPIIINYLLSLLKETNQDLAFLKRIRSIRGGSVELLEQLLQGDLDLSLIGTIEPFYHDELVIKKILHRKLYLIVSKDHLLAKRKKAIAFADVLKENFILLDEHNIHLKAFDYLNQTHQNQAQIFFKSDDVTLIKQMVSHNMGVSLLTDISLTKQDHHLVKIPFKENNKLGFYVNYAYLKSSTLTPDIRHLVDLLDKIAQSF
Test: EMSA
Settings: one complex, 20 mM Tris pH 7.5, 100 mM KCl, 2 mM EDTA, 10% glycerol, ~100 ng MleR, equal amount of competitor DNA (EP10/11 at 75 ng/ul), 20 min ambient temperature, recombinant protein, protein details: N-terminal 6His (pET28c, NdeI/NheI), label: none (SYBR Gold stain), probe letters rebuilt from the primers and the genome

Sequence: AACCTATCATCGGCAAGCACAAGGCATCAGCCAAGAAAGTTTGTCTGAAAAAGCTGGATTAGGATTGAAATATATCAATCAGATTGAAAATCAAAACCATAATCTCAGCTTGCAGACGCTTGAAAAAGTGATTGAAGCACTAGGTATGACACCGGAAGATTTTTTTGACTTTAACAGTCTTGCCATGGAAATTT (double strand) [EMSA 4 fragment (EP6-7)]
- binding result (5 mM L-malate): binds
- binding result (no L-malate): binds
